{"source": "paper PMC9320654", "about": "“Study on In Vitro Metabolism and In Vivo Pharmacokinetics of Beauvericin” (Toxins, 2022)", "test": "Metabolic stability in cryopreserved hepatocytes, monkey", "format": "in vitro ADME, cynomolgus monkey", "protocol": "BEA (10 mM) was incubated in duplicate in a 96-well plate containing a suspension of mouse, rat, monkey, dog, or human hepatocytes (0.5 × 10^6 cells/mL) at 37 °C for 1.5 h in a controlled atmosphere (5% CO2, 95% humidified incubator). BEA and the control were prepared with 50 μL of DMSO and 450 μL of acetonitrile (ACN) to achieve a final concentration of 1 μM, and then spiked into each well of 96-well plates in duplicates. Samples were withdrawn from the reaction mixture at 0, 15, 30, 60, and 90 min and were quenched with stop solution (acetonitrile containing 200 ng/mL tolbutamide and 200 ng/mL labetalol as internal standards). A cocktail of 7-ethoxycoumarin (Lot#: I1825085) was used as the positive control for the assay. The analytical plates were sealed and stored at 4 °C until LC-MS/MS analysis. The data obtained from the BEA metabolic stability assays were used to calculate the intrinsic clearance and remaining percentages, as described in Table 4 and Figure 4.\nThe remaining percentages of test articles after incubation were calculated by the following equations:(7) %Remainingat Appointed Time=Peak Area Ratios of Test Article versus Internal Standard at Appointed Time/Peak Area Ratios of Test Article versus Internal Standard 0 min\nWe used the equation of first order kinetics to calculate T1/2 and CLint:\nEquation of first-order kinetics:(8) Ct=C0·e^−k·t when Ct=1/2C0,T1/2=ln2/k=0.693/k (9) CLint hep=k/million cells per mL (10) CLint liver=CLint hep×Liver weight g/kg body weight×hepatocellularity"}
{"substance": "Beauvericin", "values": [{"measurement": "CLint (hep) (μL/min/10^6)", "setting": "monkey hepatocytes", "result": 49.4, "unit": "μL/min/10^6"}, {"measurement": "Remaining % (T = 90 min)", "setting": "monkey hepatocytes, 90 min", "result": 10.5, "unit": "%"}, {"measurement": "CLint(liver)", "setting": "scaled from monkey hepatocyte CLint", "result": 178.0, "unit": "mL/min/kg"}]}
